From US11324216B2, “Methods for controlling root parasitic weeds: inhibitors of seed germination in Striga” (King Abdullah University of Science and Technology, priority 2017, dated 2022)

The chains behind the UniProt entries cited, without tags or fusion partners. Residues count along the entry.
UniProt A0A0M3PNA2, 1-271: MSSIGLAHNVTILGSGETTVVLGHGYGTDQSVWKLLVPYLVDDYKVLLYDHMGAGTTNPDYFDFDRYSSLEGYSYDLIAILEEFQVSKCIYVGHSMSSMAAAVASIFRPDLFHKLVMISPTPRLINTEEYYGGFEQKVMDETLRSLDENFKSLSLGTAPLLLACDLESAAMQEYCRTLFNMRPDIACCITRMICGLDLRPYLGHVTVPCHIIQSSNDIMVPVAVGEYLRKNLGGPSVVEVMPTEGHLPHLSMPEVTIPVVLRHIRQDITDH

Biological target: ShHTL7 (Striga hermonthica, UniProt A0A0M3PNA2)
Assay: Yoshimulactone Green (YLG) hydrolysis analysis
Conditions: read-out: IC50 of YLG hydrolysis by ShHTL7; pre-incubation 30 min, 1 μM YLG 60 min

With `CC(C)(C)CC(C)(C)c1ccc(OCCOCCOCCOCCOCCOCCOCCOCCOCCOCCOCCOCCOCCOCCOCCOCCOCCOCCOCCOCCOCCOCCOCCOCCOCCOCCOCCOCCOCCOCCOCCOCCOCCOCCOCCOCCOCCOCCOCCOCCOCCO)cc1` the IC50 was 11.5 µM.
